According to US5502036A, “Antiherpes pentapeptide derivatives having a substituted aspartic acid side chain” (priority 1989, dated 1996):
For part of its entries the source gives two or more results. This is not the full list of results. The source may hold further records. The records of an entry do not match, cause unknown; dose, time, organism, isomer or construct need not be as stated for each record.

Sequences of proteins named here, by UniProt entry; tags and fusion partners are left off.
UniProt P08543, whole entry: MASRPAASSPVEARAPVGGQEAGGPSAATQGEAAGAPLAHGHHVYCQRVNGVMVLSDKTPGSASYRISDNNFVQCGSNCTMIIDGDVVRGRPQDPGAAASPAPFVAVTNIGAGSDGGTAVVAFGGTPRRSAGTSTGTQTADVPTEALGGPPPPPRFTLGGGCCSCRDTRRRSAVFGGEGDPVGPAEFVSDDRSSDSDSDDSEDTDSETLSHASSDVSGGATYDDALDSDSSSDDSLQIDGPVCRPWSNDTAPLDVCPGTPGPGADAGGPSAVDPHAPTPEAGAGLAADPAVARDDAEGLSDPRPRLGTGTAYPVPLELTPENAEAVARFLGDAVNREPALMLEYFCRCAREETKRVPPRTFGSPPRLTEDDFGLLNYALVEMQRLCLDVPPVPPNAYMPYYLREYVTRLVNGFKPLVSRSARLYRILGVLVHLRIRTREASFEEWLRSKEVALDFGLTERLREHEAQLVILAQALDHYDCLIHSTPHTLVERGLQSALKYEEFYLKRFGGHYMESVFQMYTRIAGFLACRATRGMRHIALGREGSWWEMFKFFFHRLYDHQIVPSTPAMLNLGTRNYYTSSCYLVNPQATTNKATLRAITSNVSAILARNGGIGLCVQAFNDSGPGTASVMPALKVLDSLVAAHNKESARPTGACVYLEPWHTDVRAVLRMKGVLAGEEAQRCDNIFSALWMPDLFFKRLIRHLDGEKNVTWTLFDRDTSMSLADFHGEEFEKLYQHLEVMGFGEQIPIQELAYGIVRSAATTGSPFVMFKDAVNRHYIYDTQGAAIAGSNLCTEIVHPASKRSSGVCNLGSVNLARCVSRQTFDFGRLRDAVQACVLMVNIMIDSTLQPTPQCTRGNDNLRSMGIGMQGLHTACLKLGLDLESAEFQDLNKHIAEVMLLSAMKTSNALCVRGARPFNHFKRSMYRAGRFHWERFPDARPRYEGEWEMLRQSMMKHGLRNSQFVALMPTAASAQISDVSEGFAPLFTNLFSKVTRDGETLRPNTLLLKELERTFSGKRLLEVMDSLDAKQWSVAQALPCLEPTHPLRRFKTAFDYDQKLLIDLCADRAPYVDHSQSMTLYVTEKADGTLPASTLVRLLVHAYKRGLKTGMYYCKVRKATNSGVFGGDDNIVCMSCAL

Molecular target: HSV-1 ribonucleotide reductase (partially purified) (Human herpesvirus 1, UniProt P08543)
Conditions: Table 5; concentration producing 50% of the maximal inhibition of enzyme activity; mean of four assays

CC[C@H](C)[C@H](NC(=O)[C@H](C(C)C)N(C)C(=O)CCc1ccccc1)C(=O)N[C@@H](CC(=O)N1CCCC1)C(=O)NC(C(=O)N[C@@H](CC(C)C)C(=O)O)C(C)(C)C(=O)O (stereo partly shown)
IC50: 70 nM and 280 nM
